Patent publication US6534523B1, “Hepatitis C inhibitor tri-peptides” (Boehringer Ingelheim (Canada) Ltd., priority 1998, dated 2003)

The chains behind the UniProt entries cited, without tags or fusion partners. Where a name states a change or a piece, a line headed by the entry shows the natural chain unless it says otherwise. Residues count along the entry.
UniProt P26663, 1027-1206 limits assumed: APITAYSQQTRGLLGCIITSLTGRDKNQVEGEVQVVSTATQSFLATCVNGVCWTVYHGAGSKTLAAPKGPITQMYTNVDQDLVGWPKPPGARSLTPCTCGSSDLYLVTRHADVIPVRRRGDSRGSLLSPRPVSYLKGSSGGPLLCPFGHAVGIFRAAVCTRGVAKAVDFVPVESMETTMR

Target: HCV NS3 protease (UniProt P26663)
Experimental: Recombinant HCV NS3 Protease/NS4A Cofactor Peptide Radiometric Assay
The enzyme was cloned, expressed and prepared according to the protocol described in Example 36. The enzyme was stored at −80° C., thawed on ice and diluted just prior to use in the assay buffer containing the NS4A cofactor peptide.
The substrate used for the NS3 protease/NS4A cofactor peptide radiometric assay, DDIVPC-SMSYTW, is cleaved between the cysteine and the serine residues by the enzyme. The sequence DDIVPC-SMSYTW corresponds to the NS5A/NS5B natural cleavage site in which the cysteine residue in P2 has been substituted for a proline. The peptide substrate DDIVPC-SMSYTW and the tracer biotin-DDIVPC-SMS[^125I-Y]TW are incubated with the recombinant NS3 protease and the NS4A peptide cofactor KKGSVVIVGRIILSGRK (molar ratio enzyme:cofactor 1:100) in the absence or presence of inhibitors. The separation of substrate from products is performed by adding avidin-coated agarose beads to the assay mixture followed by filtration. The amount of SMS[^125I-Y]TW product found in the filtrate allows for the calculation of the percentage of substrate conversion and of the percentage of inhibition.
The enzymatic reaction was initiated by the addition of the enzyme/NS4A peptide solution and the assay mixture was incubated for 40 min at 23° C. under gentle agitation. Ten (10) μL of 0.5N NaOH were added and 10 μL 1 M MES, pH 5.8 were added to quench the enzymatic reaction.
A non-linear curve fit with the Hill model was applied to the inhibition-concentration data, and the 50% effective concentration (IC50) was calculated by the use of SAS software (Statistical Software System; SAS Institute, Inc. Cary, N.C.). […]
The NS2-NS5B-3′ non coding region was cloned by RT-PCR into the pCR®3 vector (Invitrogen) using RNA extracted from the serum of an HCV genotype 1b infected individual (provided by Dr. Bernard Willems, Hôpital St-Luc, Montréal, Québec, Canada). The NS3-NS4A DNA region was then subcloned by PCR into the pFastBac™ HTa baculovirus expression vector (Gibco/BRL). The vector sequence includes a region encoding a 28-residue N-terminal sequence which contains a hexahistidine tag. The Bac-to-Bac™ baculovirus expression system (Gibco/BRL) was used to produce the recombinant baculovirus. The full length mature NS3 and NS4A heterodimer protein (His-NS3-NS4AFL) was expressed by infecting 10^6 Sf21 cells/mL with the recombinant baculovirus at a multiplicity of infection of 0.1-0.2 at 27° C. The infected culture was harvested 48 to 64 h later by centrifugation at 4° C. The cell pellet was homogenized in 50 mM NaPO4, pH 7.5, 40% glycerol (w/v), 2 mM β-mercaptoethanol, in presence of a cocktail of protease inhibitors. His-NS3-NS4AFL was then extracted from the cell lysate with 1.5% NP-40, 0.5% Triton X-100, 0.5M NaCl, and a DNase treatment. After ultracentrifugation, the soluble extract was diluted 4-fold and bound on a Pharmacia Hi-Trap Ni-chelating column. The His-NS3-NS4AFL was eluted in a >90% pure form (as judged by SDS-PAGE), using a 50 to 400 mM imidazole gradient. The His-NS3-NS4AFL was stored at −80° C. in 50 mM sodium phosphate, pH 7.5, 10% (w/v) glycerol, 0.5 M NaCl, 0.25 M imidazole, 0.1% NP-40. It was thawed on ice and diluted just prior to use. The protease activity of His-NS3-NS4AFL was assayed in 50 mM Tris-HCl, pH 8.0, 0.25 M sodium citrate, 0.01% (w/v) n-dodecyl-β-D-maltoside, 1 mM TCEP. Five (5) μM of the internally quenched substrate anthranilyl-DDIVPAbu[C(O)—O]-AMY(3-NO2)TW-OH in presence of various concentrations of inhibitor were incubated with 1.5 nM of His-NS3-NS4AFL for 45 min at 23° C. […] The reaction was terminated with the addition of 1M MES, pH 5.8. Fluorescence of the N-terminal product was monitored on a Perkin-Elmer LS-50B fluorometer equipped with a 96-well plate reader (excitation wavelength: 325 nm; emission wavelength: 423 nm).
The following tables list compounds representative of the invention.

C[C@H](C(=O)N[C@H](C(=O)N1C[C@H](OCc2cccc3ccccc23)C[C@H]1C(=O)NC1(C(=O)O)CC1)C1CCCCC1)C1CCCCC1
IC50 (Table 1): 45 µM

CCC1CC1(NC(=O)[C@@H]1C[C@@H](OCc2cccc3ccccc23)CN1C(=O)[C@@H](NC(=O)OC(C)(C)C)C1CCCCC1)C(=O)O (single isomer, unassigned) [201]
IC50 (Table 2): 15 µM

C=CC1CCC1(NC(=O)[C@@H]1C[C@@H](Oc2cc(-c3ccccc3)nc3cc(OC)ccc23)CN1C(=O)[C@@H](NC(=O)OC(C)(C)C)C(C)(C)C)C(=O)O (stereo partly shown)
IC50 (Table 4): 0.22 µM

C=CC1CC1(NC(=O)C1CC(Oc2nc(-c3ccccc3)nc3ccccc23)CN1C(=O)C(NC(=O)OC(C)(C)C)C(C)(C)C)C(=O)O (stereo not shown)
IC50 (Table 3): 0.19 µM

Like-named read-outs stand apart in the source and are kept apart here.
